According to article PMC11063343, “Cellugyrin (synaptogyrin-2) dependent pathways are used by bacterial cytolethal distending toxin and SARS-CoV-2 virus to gain cell entry” (2024):

How the values were obtained:
Cdt subunit CdtC = Cdt subunit CdtC (UniProt O87122)

| Substance | response (m1, O87120;O87121;O87122) [RU] | response (Cdt subunit CdtC) [RU] |
| --- | --- | --- |
| cellugyrin Middle outer loop (MOL) peptide Y103A; F111A | 22 |  |
| cellugyrin Middle outer loop (MOL) peptide R101A; F111A |  | 130 |
